Measured values from several laboratories, pooled; numbers as filed in NIAID ChemDB.

Shared fields: tests on isolated targets

Lines come from different laboratories, so protocols vary. An empty or dashed field is not shown. ICn is the concentration giving n% inhibition. Inhibition is in % at the dose shown (toxicity tests: loss of growth or viability).

| structure | dose | method | target | species | strain | read-out | value |
|---|---|---|---|---|---|---|---|
| O=C(Nc1nnc(NCCCCc2ccccc2)s1)c1cc(F)cc(F)c1 | - | - | Polymerase | Human cytomegalovirus | - | IC50 | >25 µM |
| COCON1C(=O)[C@H]([C@H](O)c2ccc(OC)cc2)N(Cc2ccc(OC)cc2)[C@@H](CC(C)C)C1=O | - | - | Transcriptase | Influenza A virus | - | IC50 | >200 µM |
| CCCC(C(=O)O)P(=O)(O)O | - | - | DNA polymerase | Herpes simplex virus 2 | - | IC50 | 160 µM |
| O=C(OC[C@H]1O[C@@H](n2cnc3c(=O)[nH]cnc32)[C@H](O)[C@@H]1O)c1ccc(S(=O)(=O)F)cc1 | 300 µM | - | NTPase/helicase | Dengue virus | - | inhibition | 17% |
| O=C1C=CN([C@@H]2O[C@H](CO)[C@@H](O)[C@H]2O)C(=O)C1 | 500 µM | - | RNA polymerase | Simian rotavirus | - | inhibition | 7% |
| COCON1C(=O)[C@H]([C@H](O)c2cccc(F)c2)N(Cc2ccc(OC)cc2)[C@@H](CC(C)C)C1=O | - | - | Transcriptase | Influenza A virus | - | IC50 | >200 µM |
| CCCCCCCCCCCNc1nnc(NC(=O)c2ccc(I)cc2)s1 | - | - | Polymerase | Human cytomegalovirus | - | IC50 | <25 µM |
| Nc1ncnc2c1ncn2[C@@H]1O[C@H](COC(=O)c2ccc(S(=O)(=O)F)cc2)[C@@H](O)[C@H]1O | 300 µM | - | NTPase/helicase | West Nile virus | - | inhibition | 16% |
| CC(C)c1cc(C(C)C)c(C(=O)Nc2nnc(NC3CCCCCC3)s2)c(C(C)C)c1 | - | - | Polymerase | Human cytomegalovirus | - | IC50 | >25 µM |
| O=C(N[C@@H](Cc1ccccc1)C(=O)N[C@H](/C=C/S(=O)(=O)c1ccccc1)CCc1ccccc1)C1CCC2(CC1)OOC1(OO2)C2CC3CC(C2)CC1C3 | - | fluorescence | Falcipain-2 | Plasmodium falciparum | - | IC50 | 9.784 µM |
| CC(C(O)(Cn1cncn1)c1ccc(F)cc1F)S(C)(=O)=O | - | - | Lanosterol 14-alpha demethylase | Candida albicans | 652 | IC50 | 0.12 µM |
| COCON1C(=O)[C@H]([C@H](OS(C)(=O)=O)c2ccccc2F)N(Cc2ccc(OC)cc2)[C@@H](CC(C)C)C1=O | - | - | Transcriptase | Influenza A virus | - | IC50 | >200 µM |
| O=C(Nc1nnc(NCCC(c2ccccc2)c2ccccc2)s1)c1ccc(Br)cc1 | - | - | Polymerase | Human cytomegalovirus | - | IC50 | >25 µM |
| CCOC(=O)P(=O)(O)OCC | - | - | DNA polymerase | Herpes simplex virus 1 | - | IC50 | >35 µM |
| CC(=O)N1CCN(c2ccc(OC[C@H]3CO[C@](Cn4ccnc4)(c4ccc(Cl)cc4Cl)O3)cc2)CC1 | - | - | Lanosterol 14-alpha demethylase | Candida albicans | 652 | IC50 | 0.038 µM |
| CCCCCCCCCC(C(=O)O)P(=O)(O)O | - | - | DNA polymerase | Human cytomegalovirus | - | IC50 | 1.5 µM |
| COC(=O)C1c2cc3c(c(O)c2C(O)CC1(C)O)C(=O)c1c(O)cc2c(c1C3=O)OC1OC2(C)C(O)C(N(C)C)C1O | - | - | NTPase/helicase | Dengue virus | - | IC50 | >650 µM |
| O=C(/C=C/c1ccccc1)Nc1nnc(NCCN2CCOCC2)s1 | - | - | Polymerase | Human cytomegalovirus | - | IC50 | >25 µM |
| Nc1ncnc2c1ncn2C[C@H](O)CO | 500 µM | - | RNA polymerase | Simian rotavirus | - | inhibition | 0% |
| CC(C)C[C@H](NC(=O)CC1CCC2(CC1)OOC1(OO2)C2CC3CC(C2)CC1C3)C(=O)N[C@H](/C=C/S(=O)(=O)c1ccccc1)CCc1ccccc1 | - | fluorescence | Falcipain-2 | Plasmodium falciparum | - | IC50 | 8.739 µM |
| Cn1c2ccccc2c2c3c(c4c5ccccc5n(CC(F)F)c4c21)CNC3=O | - | - | Myosin light-chain kinase | - | - | IC50 | 0.44 µM |
| CCCCCCCCCCCNc1nnc(NC(=O)c2c(C(C)C)cc(C(C)C)cc2C(C)C)s1 | - | - | Polymerase | Human cytomegalovirus | - | IC50 | >25 µM |
| CCC(CC)[C@H](NC(C)=O)[C@@H]1[C@H](O)[C@@H](C(=O)O)C[C@H]1N=C(N)N | - | - | Influenza virus neuraminidase | Influenza A virus | WILD TYPE (1190 | IC50 | 0.0011 µM |
| COCON1C(=O)[C@H]([C@H](OS(C)(=O)=O)c2ccccc2)N(Cc2ccc(OC)cc2)[C@@H](CC(C)C)C1=O | - | - | Transcriptase | Influenza A virus | - | IC50 | >200 µM |
| COc1cccc2c1C(=O)c1c(O)c3c(c(O)c1C2=O)C[C@@](O)(C(C)=O)C[C@@H]3O[C@H]1C[C@H](N)[C@H](O)[C@H](C)O1 | - | - | NTPase/helicase | West Nile virus | - | IC50 | 120 µM |
| CC(C)C[C@H](NC1CCC2(CC1)OOC1(OO2)C2CC3CC(C2)CC1C3)C(=O)N[C@H](/C=C/S(=O)(=O)c1ccccc1)CCc1ccccc1 | - | fluorescence | Falcipain-2 | Plasmodium falciparum | - | IC50 | 10.5 µM |
| O=C(Nc1nnc(NCCCN2CCCC2=O)s1)c1cccc([N+](=O)[O-])c1 | - | - | Polymerase | Human cytomegalovirus | - | IC50 | <25 µM |
| COc1cc(C[C@@H](C)[C@@H](C)Cc2ccc(O)c(OC)c2)ccc1O | - | - | Rv3273 | Mycobacterium tuberculosis | Rv3273 | Ki | 9.1 µM |
| CN1Cc2c(c3c4ccccc4n(C)c3c3c2c2ccccc2n3CCC#N)C1=O | - | - | Myosin light-chain kinase | - | - | IC50 | >10 µM |
| O=C(/C=C/c1ccccc1)Nc1nnc(NCCCNC2CCCCC2)s1 | - | - | Polymerase | Human cytomegalovirus | - | IC50 | <25 µM |
| Cn1c2ccccc2c2c3c(c4c5ccccc5n(CCC#N)c4c21)CNC3=O | - | - | Myosin light-chain kinase | - | - | IC50 | 5.8 µM |
| CC(C)C[C@H](NC(=O)C1CCC2(CC1)OOC1(OO2)C2CC3CC(C2)CC1C3)C(=O)N[C@H](/C=C/S(C)(=O)=O)CCc1ccccc1 | - | fluorescence | Falcipain-2 | Plasmodium falciparum | - | IC50 | 1.53 µM |

A second listing of 3 rows from above:

{"structure": "COc1cccc2c1C(=O)c1c(O)c3c(c(O)c1C2=O)C[C@@](O)(C(C)=O)C[C@@H]3O[C@H]1C[C@H](N)[C@H](O)[C@H](C)O1", "target": "NTPase/helicase", "species": "West Nile virus", "read-out": "IC50", "value": "120 µM"}
{"structure": "CCCC(C(=O)O)P(=O)(O)O", "target": "DNA polymerase", "species": "Herpes simplex virus 2", "read-out": "IC50", "value": "160 µM"}
{"structure": "Cn1c2ccccc2c2c3c(c4c5ccccc5n(CC(F)F)c4c21)CNC3=O", "target": "Myosin light-chain kinase", "read-out": "IC50", "value": "0.44 µM"}